Results of unrelated studies side by side (data: NIAID ChemDB).

Common to all: tests in culture; organism: Plasmodium falciparum; read-out: EC50

ECn is the concentration giving n% inhibition of infection, replication or growth. Neighbouring rows are from separate reports. An empty or dashed field is not shown.

smiles,strain,changes,cell line,method,conditions,value
CC[C@H]1OC(=O)[C@H](C)[C@@H](OC2C[C@@](C)(OC)[C@@H](O)[C@H](C)O2)[C@H](C)[C@@H](OC2O[C@H](C)C[C@H](N(C)C)[C@H]2O)[C@](C)(OC2C[C@H](N)[C@H](O)[C@H](C)O2)C[C@@H](C)C(=O)[C@H](C)[C@@H](O)[C@]1(C)O,W2 Mef,,RBC,fluorescence,48 h,27.6 µM
CCN(CC)CCCn1c(N)c(-c2nc3ccccc3[nH]2)c2nc(C#N)c(C#N)nc21,NF54,,Erythrocytes,hypoxanthine uptake / radiometric,,0.09 µM
NC1=Nc2ccc(Cl)cc2C1(O)c1ccc(S(N)(=O)=O)cc1,Dd2,,,,,>5 µM
CCOC(C)=O,D10,,Human dermal fibroblasts,MTT,,61.3 µg/mL
C=CCCC1CC2CCCC3CC(C)NC(=N1)N23,W2,,,LDH,,19.27 µM
COc1ccc(CCn2c(N)c(-c3nc4ccccc4[nH]3)c3nc(C#N)c(C#N)nc32)cc1OC,NF54,,Erythrocytes,hypoxanthine uptake / radiometric,,0.25 µM
CCCCCCCCCC1CC2CCCC3CC(C)NC(=N1)N23,W2,,,LDH,,3.76 µM
CCN(CC)CCCC(C)Nc1ccnc2cc(Cl)ccc12,W2,,RBC,flow cytometry,,0.52 µM
CCN(CC)CCCC(C)Nc1ccnc2cc(Cl)ccc12,D10,,RBC,MTT / LDH,,0.04 µM
c1ccc(C2CC3(N4CCCCC4)CC(c4ccccc4)C2N(CCCN2CCCCC2)C3)cc1,K1,,human red blood cells,,,0.12 µM
CCN(CC)CCCC(C)Nc1ccnc2cc(Cl)ccc12,Congolese chloroquine-sensitive strain,,Human erythrocytes,,,<0.02 µg/mL
C=C(C)[C@@H]1CC[C@](C)(O)[C@H](Br)CC[C@@]2(C)[C@H](Cc3cc(ccc3O)C(=O)O1)C(=C)CC[C@@H]2Br,3D7 MR4/ATCC,,Human O+ erythrocytes,SYBR Green,,0.8 µM
CCCCC[C@@H]1C[C@@H]2CCC[C@@H]3C[C@H](CCCCC)NC(=N1)N32,D6,,,LDH,,2.25 µM
CC1=C2Cc3cc(ccc3O)C(=O)O[C@H](C(C)(C)Br)CC[C@](C)(O)[C@H](Br)CC[C@]2(C)[C@@H](Br)CC1,3D7 MR4/ATCC,,Human O+ erythrocytes,SYBR Green,,0.9 µM
O=C(/C=C/c1ccccc1)OCC1OC(OC2C=C[C@H]3[C@@H](O2)[C@@H]2O[C@]2(CO)[C@@H]3O)C(O)C(O)C1O,3D7,,Erythrocytes,,,>25 µM
NCCSC[C@H](N)C(=O)N(O)C1C[C@@H](C(N)=O)N(C(=O)c2ccc3nc(-c4ccccc4Br)[nH]c3c2)C1,3D7,,Red blood cells,flow cytometry,48 h,551 µM
C=C1CC[C@H](Br)[C@@]2(C)CC[C@@H](Br)[C@@](C)(O)CC[C@@H](C(C)(C)Br)OC(=O)c3ccc(O)c(c3)C[C@H]12,3D7 MR4/ATCC,,Human O+ erythrocytes,SYBR Green,,0.3 µM
c1ccc(CC[C@@H]2C[C@@H]3CCC[C@@H]4C[C@H](CCc5ccccc5)NC(=N2)N43)cc1,W2,,,LDH,,8.26 µM
O=C1Nc2ccccc2C1(O)c1ccccc1,Dd2,,,,,>5 µM
c1ccc(CC[C@@H]2C[C@@H]3CC[C@@H]4C[C@H](CCc5ccccc5)NC(=N2)N43)cc1,W2,,,LDH,,8.04 µM
CCN(CC)CCCC(C)Nc1ccnc2cc(Cl)ccc12,W2,,Red blood cells,flow cytometry,,0.186 µM
CC[C@H]1OC(=O)[C@H](C)[C@@H](OC2C[C@@](C)(OC)[C@@H](O)[C@H](C)O2)[C@H](C)[C@@H](OC2O[C@H](C)C[C@H](N(C)C)[C@H]2O)[C@](C)(OC2C[C@@H](O)[C@H](O)[C@H](C)O2)C[C@@H](C)C(=O)[C@H](C)[C@@H](O)[C@]1(C)O,W2 Mef,,RBC,fluorescence,48 h,58.6 µM
C[C@H]1CCc2c([nH]c3ccccc23)[C@@]2(N1)C(=O)Nc1ccc(Cl)cc12,Dd2 (CM1),Multidrug-resistant,,SYBR Green / fluorescence,,0.0318 µM
CC(C)OC(C)C,D10,,Human dermal fibroblasts,MTT,,8.8 µg/mL
C#CCC[C@@H]1C[C@@H]2CC[C@@H]3C[C@H](CCC#C)NC(=N1)N32,D6,,,LDH,,9.66 µM
CN1CCN(CCCN2CC3(N4CCN(C)CC4)CC(c4ccccc4)C2C(c2ccccc2)C3)CC1,K1,,human red blood cells,,,0.25 µM
CC1=C2Cc3cc(ccc3O)C(=O)OC(C)(C)C(O)CC[C@](C)(O)C(Br)CC[C@]2(C)[C@@H](Br)CC1,3D7 MR4/ATCC,,Human O+ erythrocytes,SYBR Green,,14 µM
Cc1ccccc1CC1(O)C(N)=Nc2ccc(Cl)cc21,3D7,,,,,0.063 µM
CC(C)CCCC1CC2CCCC3CC(C)NC(=N1)N23,D6,,,LDH,,4.69 µM
c1ccc(C2CC3(N4CCCCC4)CC(NCCCN4CCCC4)C2C(c2ccccc2)C3)cc1,K1,,human red blood cells,,,0.23 µM
O=C1C=C(O)c2ccccc2C1=O,3D7,,Erythrocytes,flow cytometry,,89 µM
CC(C)CC(=O)O[C@@H]1[C@@H](OC(=O)CC(C)C)[C@H](O[C@]2(CO)O[C@H](CO)[C@@H](OC(=O)CC(C)C)[C@@H]2OC(=O)CC(C)C)O[C@H](CO)[C@H]1OC(=O)CC(C)C,HB3,,Red blood cells,SYBR Green,,1.623 µg/mL
NC1=Nc2ccc(Cl)cc2C1(O)C1CC1,Dd2,,,,,0.465 µM
N#Cc1nc2c(-c3nc4ccccc4[nH]3)c(N)n(CCc3ccccc3Cl)c2nc1C#N,NF54,,Erythrocytes,hypoxanthine uptake / radiometric,,0.28 µM
CCN(CC)CCCC(C)Nc1ccnc2cc(Cl)ccc12,W2,,human red blood cells,LDH / absorbance,,0.12 µM
CCN(CC)CCCC(C)Nc1ccnc2cc(Cl)ccc12,K1,,human red blood cells,,,0.15 µM
COc1cc(C(C)=O)ccc1OC1CC(O)C(O)C(COC(=O)/C=C/c2ccccc2)O1,3D7,,Erythrocytes,,,>25 µM
NC1=Nc2ccc([N+](=O)[O-])cc2C1(O)c1ccccc1,3D7,,,,,>5 µM
COCC1(C)C2CC2[C@@]2(C)CC[C@@H](Br)[C@@](C)(O)CC[C@@H](C(C)(C)Br)OC(=O)c3ccc(O)c(c3)CC12,3D7 MR4/ATCC,,Human O+ erythrocytes,SYBR Green,,2.7 µM
O=CN(O)CCCP(=O)(O)O,3D7,,red blood cell,,,0.1814 µM

The last 4 rows once more:

| smiles | strain | changes | cell line | method | conditions | value |
|---|---|---|---|---|---|---|
| COc1cc(C(C)=O)ccc1OC1CC(O)C(O)C(COC(=O)/C=C/c2ccccc2)O1 | 3D7 |  | Erythrocytes |  |  | >25 µM |
| NC1=Nc2ccc([N+](=O)[O-])cc2C1(O)c1ccccc1 | 3D7 |  |  |  |  | >5 µM |
| COCC1(C)C2CC2[C@@]2(C)CC[C@@H](Br)[C@@](C)(O)CC[C@@H](C(C)(C)Br)OC(=O)c3ccc(O)c(c3)CC12 | 3D7 MR4/ATCC |  | Human O+ erythrocytes | SYBR Green |  | 2.7 µM |
| O=CN(O)CCCP(=O)(O)O | 3D7 |  | red blood cell |  |  | 0.1814 µM |